Laboratory results published in patent EP1016405A2, “Arylating medicaments” (Radopath Pharmaceuticals International Limited, priority 1993, dated 1994).
Values joined by “and” are separate entries in the source; they are usually repeats but may differ in a detail not shown here. Equal values may be shown once. Read-outs that look alike come from different tables or passages of the source.

Experiments:
HIV-1RF = test: Acute Infection Assay, HIV core antigen ELISA in C8166 cells; type: cell-based, human immunodeficiency virus; conditions: Against HIV-1RF; for IC50: read-out: IC50 (Antiviral)
uninfected cells = test: Toxicity Assay, 14C protein hydrolysate uptake, 72 hours; conditions: read-out: CC50 (Toxicity), section Against HIV-1RF, single assays, unit inferred

4-nitrotoilnenesulfonic acid
IC50 (HIV-1RF; Table 11.4, single assays, unit inferred): > 200 µM
CC50 (uninfected cells; Table 11.4): > 200 µM

picrylsulfonic acid (sodium salt)
IC50 (HIV-1RF; Table 11.2, single assays, no unit printed (tested 200µM to 0.2µM)): > 200 µM
CC50 (uninfected cells; Table 11.2): > 200 µM

O=[N+]([O-])c1ccc(S(=O)(=O)O)c([N+](=O)[O-])c1 [Compound S8, 2,4-dinitrobenzenesulfonic acid]
SI (Selectivity Index) (HIV-1RF; Table 11.4, Average): 2.4
SI (Selectivity Index) (HIV-1RF; Table 11.4, single assays): 2.5 and 2
